Taken from: PubChem BioAssay AID624099 (ICCB-Longwood, 2012)
Here is one part, drawn at random, of about 21,000 reagents tested. 497 of all reagents (2.4%) were called active. 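Higher z means weaker E2 silencing; only reporter increases were scored, and knock-downs that hurt cell survival may mask genuine repressor factors.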 No sequences are given here.

Purpose: 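Host factors E2 relies on to silence an HPV18 LCR reporter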 (primary screen)
System: human C33A cervical carcinoma cells (HPV-negative) stably expressing BPV1 E2 and an HPV18 LCR luciferase reporter
Reagent: siRNA pool against human genes, 40 nM
Duration: 72 h
Measured: 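Per-well luciferase luminescence, z-scored on each plate against the plate mean and SD with control wells left out, then averaged across three replicate plates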
Direction: mean z-score and z-score: higher = stronger reporter signal, weaker E2 silencing
Rule for the call: 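Hit if mean z-score reaches 2 and two or more of three replicate z-scores also reach 2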

KCTD7 | mean z-score = -0.61; z-score, replicate A = -0.54; z-score, replicate B = -0.53; z-score, replicate C = -0.77; activity call = inactive
LINC03034 | mean z-score = 0.49; z-score, replicate A = 0.23; z-score, replicate B = 0.43; z-score, replicate C = 0.8; activity call = inactive
DOP1B | mean z-score = -1.51; z-score, replicate A = -1.26; z-score, replicate B = -1.84; z-score, replicate C = -1.42; activity call = inactive
XKR8 | mean z-score = 1.45; z-score, replicate A = 1.51; z-score, replicate B = 1.6; z-score, replicate C = 1.23; activity call = inactive
ERBB3 | mean z-score = -1.41; z-score, replicate A = 0.95; z-score, replicate B = 0.73; z-score, replicate C = -5.92; activity call = inactive
CITED2 | mean z-score = -0.23; z-score, replicate A = -0.36; z-score, replicate B = -0.33; z-score, replicate C = 0; activity call = inactive
LOC728329 (retired record) | mean z-score = 0.08; z-score, replicate A = 0.18; z-score, replicate B = 0.13; z-score, replicate C = -0.09; activity call = inactive
GCGR | mean z-score = -1.46; z-score, replicate A = -1.23; z-score, replicate B = -1.44; z-score, replicate C = -1.71; activity call = inactive
ZNF385B | mean z-score = -0.78; z-score, replicate A = -0.86; z-score, replicate B = -0.68; z-score, replicate C = -0.81; activity call = inactive
VWA3A | mean z-score = -1.58; z-score, replicate A = -1.5; z-score, replicate B = -1.81; z-score, replicate C = -1.42; activity call = inactive
PLEKHG4 | mean z-score = 0.68; z-score, replicate A = 0.71; z-score, replicate B = 0.73; z-score, replicate C = 0.61; activity call = inactive
RETN | mean z-score = -0.54; z-score, replicate A = -0.39; z-score, replicate B = -0.68; z-score, replicate C = -0.57; activity call = inactive

Records listed so far whose gene name starts with L or l:
LINC03034 | mean z-score = 0.49; z-score, replicate A = 0.23; z-score, replicate B = 0.43; z-score, replicate C = 0.8; activity call = inactive
LOC728329 (retired record) | mean z-score = 0.08; z-score, replicate A = 0.18; z-score, replicate B = 0.13; z-score, replicate C = -0.09; activity call = inactive
